Anti-infective test results gathered from many reports (values: NIAID ChemDB through PubChem).

Shared fields: tests on isolated targets; organism: Hepatitis C virus; target: NS5B polymerase; measure: IC50

Rows are shuffled and stem from different studies. a–b is a range or a potency band. Blank or dashed fields: not listed here. ICn is the concentration giving n% inhibition.

smiles | strain | result
O=C(O)/C=C/c1ccc(NC(=O)C2(NC(=O)c3ccc4c(c3)nc(-c3ccoc3)n4C3CCC3)CCCC2)cc1 |  | 0.5–5 µM
COc1cc(C(=O)N2[C@@H](c3ncc(C)s3)[C@@H](c3cnccn3)C[C@@]2(Cc2nccs2)C(=O)O)ccc1C(C)(C)C | Genotype 1A | <0.15 µM
CCSc1nc(Nc2ccc(N(CC)CC)cc2)cc(N2CCN(C(=O)c3ccccc3)CC2)n1 |  | 3 µg/mL
Cc1ccc(-c2nc3cc(C(=O)N[C@@H](Cc4c[nH]c5ccc(O)cc45)C(=O)O)ccc3nc2-c2ccc(Cl)cc2)cc1 |  | <10 µM
CCN(CC)c1ccc(Nc2cc(N3CCN(C(=O)c4ccncc4)CC3)nc(SCc3ccccc3)n2)cc1 |  | 3 µg/mL
C[C@@H](NC(=O)c1ccc2c(c1)nc(-c1ccccn1)n2C1CCCCC1)C(=O)Nc1ccc(/C=C/C(=O)O)cc1 |  | <0.5 µM
O=C(Cn1nc(C(=O)O)cc1C(=O)Nc1ccccc1OCc1ccsc1)N[C@H]1CCCC[C@@H]1OCc1ccccc1 |  | ≤0.05 µM
COc1cc(C(=O)N2[C@@H](c3nccs3)[C@@H](c3cnccn3)C[C@@]2(Cc2cnc[nH]2)C(=O)O)ccc1C(C)(C)C | genotype 1b | 0.1–0.5 µM
CCCCOC(=O)c1ccc(CC)nc1Nc1ccc(N2CCOCC2)cc1 |  | 3 µg/mL
COc1cc(C(=O)N2[C@@H](c3nccs3)[C@@H](c3cnccn3)C[C@@]2(Cn2cccn2)C(=O)O)ccc1C(C)(C)C | Genotype 1A | <0.15 µM
CS(=O)(=O)Nc1nc(-c2cccs2)nc(C(=O)O)c1O |  | >50 µM
O=C(N[C@@H](Cc1c[nH]c2ccccc12)C(=O)O)c1ccc2nc(-c3ccccn3)c(-c3ccccn3)nc2c1 |  | >50 µM
CCSc1nc(N2CCN(C(=O)c3ccccc3)CC2)cc(N(C)c2ccc(N(C)C)cc2)n1 |  | 3 µg/mL
COc1cc(C(=O)N2[C@@H](c3nccs3)[C@@H](c3cnccn3)C[C@@]2(Cc2ccccc2)C(=O)O)ccc1C(C)(C)C | Genotype 1A | >1 µM
CC/C(=C\c1cccc(NC(=O)C(C)NC(=O)c2ccc3c(c2)nc(-c2ccoc2)n3C2CCCCC2)c1)C(=O)O |  | 0.5–5 µM
CCSc1nc(Nc2ccc(N(CC)CC)cc2)cc(N2CCN(C(=O)c3ncccn3)CC2)n1 |  | 3 µg/mL
CN(C(=O)Cn1nc(C(=O)NCCc2ccccc2)cc1C(=O)N[C@H]1CCCC[C@@H]1OCc1ccccc1)[C@H]1CCCC[C@@H]1OCc1ccccc1 |  | 0.1–1 µM
O=c1[nH]c(-c2cccs2)nc(-c2nn[nH]n2)c1O |  | >50 µM
O=C(Cn1nc(C(=O)NCC2CCCCC2)cc1C(=O)N[C@H]1CCCC[C@@H]1OCc1ccccc1)Nc1ccccc1OCc1ccccc1 |  | 0.1–1 µM
O=C(O)/C=C/c1ccc(NC(=O)C(NC(=O)c2ccc3c(c2)nc(-c2ccoc2)n3C2CCCCC2)C2CCCCC2)cc1 |  | 0.5–5 µM
CCC[C@]1(CC(=O)O)OCCc2c1[nH]c1c(C)ccc(C#N)c21 | 207-247 genotype 1A | 1 µM
CC(O)(Nc1ccc(Cl)cc1)c1cc(C(=O)N[C@H]2CCCC[C@@H]2OCc2ccccc2)n(CC(=O)N[C@H]2CCCC[C@@H]2OCc2ccccc2)n1 |  | ≥1 µM
COc1cc(C(=O)N2[C@@H](c3nccs3)[C@@H](c3cnccn3)C[C@@]2(Cc2cscn2)C(=O)O)ccc1C(C)(C)C | Genotype 1A | <0.15 µM
C[C@H]1CCC[C@H](C)C1n1c(-c2cccs2)nc2cc(C(=O)NC3(C(=O)Nc4ccc(/C=C/C(=O)O)cc4)CCCC3)ccc21 |  | <0.5 µM
COc1cc(C(=O)N2[C@@H](c3nccs3)[C@@H](c3cnccn3)C[C@@]2(Cc2ccsn2)C(=O)O)ccc1C(C)(C)C | Genotype 1A | <0.15 µM
O=C(O)/C=C/c1ccc(NC(=O)C2(NC(=O)c3ccc4c(c3)nc(-c3cccc5c3OCO5)n4C3CCCCC3)CCCC2)cc1 |  | 0.5–5 µM
COC(=O)[C@H](Cc1c[nH]c2ccc(O)cc12)NC(=O)c1ccc2nc(-c3ccc(F)cc3)c(-c3ccc(F)cc3)nc2c1 |  | <10 µM
O=C(Cn1nc(C(=O)Nc2nn[nH]n2)cc1C(=O)N[C@H]1CCCC[C@@H]1OCc1ccccc1)N[C@H]1CCCC[C@@H]1OCc1ccccc1 |  | 0.05–0.1 µM
Cc1ccc(-c2nc3cc(C(=O)O)ccc3nc2-c2ccc(Cl)cc2)cc1 |  | <10 µM
O=C(NS(=O)(=O)Cc1ccccc1)c1nc(-c2cccs2)[nH]c(=O)c1O |  | >50 µM
O=C(N[C@@H](Cc1c[nH]c2ccc(O)cc12)C(=O)O)c1ccc2nc(-c3ccc(F)cc3)c(-c3ccc(F)cc3)nc2c1 |  | <10 µM
O=c1[nH]c(-c2cccs2)nc(P(=O)(O)O)c1O |  | >50 µM
C[C@@H](NC(=O)c1ccc2c(c1)nc(-c1ccoc1)n2C1CCCCC1)C(=O)Nc1ccc(-c2ccoc2)cc1 |  | 0.5–5 µM
O=C(O)c1ccc2nc(-c3ccc(F)cc3)c(-c3ccc(F)cc3)nc2c1 |  | <10 µM

A second listing of 4 rows from above:

| smiles | strain | result |
|---|---|---|
| O=C(Cn1nc(C(=O)Nc2nn[nH]n2)cc1C(=O)N[C@H]1CCCC[C@@H]1OCc1ccccc1)N[C@H]1CCCC[C@@H]1OCc1ccccc1 |  | 0.05–0.1 µM |
| O=C(N[C@@H](Cc1c[nH]c2ccc(O)cc12)C(=O)O)c1ccc2nc(-c3ccc(F)cc3)c(-c3ccc(F)cc3)nc2c1 |  | <10 µM |
| O=C(N[C@@H](Cc1c[nH]c2ccccc12)C(=O)O)c1ccc2nc(-c3ccccn3)c(-c3ccccn3)nc2c1 |  | >50 µM |
| CCN(CC)c1ccc(Nc2cc(N3CCN(C(=O)c4ccncc4)CC3)nc(SCc3ccccc3)n2)cc1 |  | 3 µg/mL |